Share of PSTVd loop 15 variants by leaf site

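A pool of all variants was put on leaves of three Nicotiana benthamiana plants. Samples came from the inoculated region at 5 days, the leaf margin at 10 and upper systemic leaves at 12.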

Region: loop 15 of PSTVd (intermediate strain), upper and lower strand joined, each 5' to 3', the first 7 letters being the upper strand, closing pairs included. Wild type: GGAAACCGCUACUAC. Varied positions (N): GGAAACCGNNNNNNC.

Values are reads per thousand in the sample; higher means more abundant, 0 means not found. Each value is the mean of three plants. "Pool" is the share in the plasmid pool used as inoculum, on the same scale. The inoculated region was read from the minus strand, the other sites from the plus strand. Wild type was 33.9 per thousand in the pool and the most common sequence in every sample (inoculated region 202, 200, 159; leaf margin 724, 746, 710; systemic leaves 856, 883, 880).

sequence	pool	inoculated region	leaf margin	systemic leaves
GGAAACCGCUAAGAC	0.144	0.124	0.0310	0.00504
GGAAACCGUAUAAAC	0.160	0.120	0	0
GGAAACCGCACUACC	0.128	0.0855	0.0241	0
GGAAACCGUAAGGUC	0.240	0.291	0.0444	0.0386
GGAAACCGAAGCGUC	0.336	0.105	0.00668	0
GGAAACCGACAAGGC	0.272	0.0723	0.0148	0
GGAAACCGACAUGGC	0.224	0.109	0.0208	0
GGAAACCGGUAGGAC	0.304	0.263	0.100	0.0747
GGAAACCGCAUUCCC	0.240	0.0952	0	0
GGAAACCGACCUAUC	0.240	0.127	0	0
GGAAACCGCGUCCGC	0.272	0.102	0.00668	0
GGAAACCGCCAACUC	0.160	0.375	0.141	0.0901
GGAAACCGAGAUUAC	0.224	0.872	0.203	0.0287
GGAAACCGUGUAUAC	0.224	0.357	0.165	0.113
GGAAACCGGCAUCCC	0.304	0.0796	0	0
GGAAACCGCCGUCCC	0.352	0.0794	0.00742	0.00537
GGAAACCGAUCACAC	0.224	0.0867	0	0
GGAAACCGGCUGCUC	0.176	0.0677	0.00668	0
GGAAACCGACCACGC	0.272	0.0868	0.0134	0.00537
GGAAACCGGCGCUCC	0.272	0.108	0	0
GGAAACCGGCCAUCC	0.160	0.0951	0.00539	0
GGAAACCGGAGCCCC	0.256	0.111	0.0141	0.00537
GGAAACCGGGACACC	0.176	0.114	0	0
GGAAACCGCCACGUC	0.208	0.0558	0.0403	0
GGAAACCGUGGAUCC	0.256	0.110	0.00668	0
GGAAACCGCGUGCAC	0.160	0.102	0.0262	0
GGAAACCGGUGCUGC	0.240	0.109	0.0254	0.00537
GGAAACCGGCUGAUC	0.224	0.107	0.0195	0
GGAAACCGGGUGAGC	0.272	0.0796	0.00668	0
GGAAACCGGCAUGCC	0.352	0.0399	0.00742	0.00537
GGAAACCGUCAAGGC	0.224	0.185	0	0.00537
GGAAACCGUCCAUAC	0.208	0.347	0.0423	0.0490
GGAAACCGGUUCAAC	0.304	0.0752	0.00668	0
GGAAACCGAUGAACC	0.192	0.132	0	0
GGAAACCGCUGGACC	0.128	0.0948	0.0148	0

A selection of 4 entries from above:

sequence	pool	inoculated region	leaf margin	systemic leaves
GGAAACCGAUCACAC	0.224	0.0867	0	0
GGAAACCGUCAAGGC	0.224	0.185	0	0.00537
GGAAACCGCCGUCCC	0.352	0.0794	0.00742	0.00537
GGAAACCGGGUGAGC	0.272	0.0796	0.00668	0

With 43,870-66,106 reads a sample, very low values are single reads. Sequences that differ at fixed positions probably stem from PCR or sequencing errors, and defective variants can be carried along by functional ones.

Reference: Wu et al. 2024, doi:10.1371/journal.ppat.1012142.